Pooled drug test results. Numbers come from NIAID ChemDB, via PubChem.

Shared fields: tests in culture

Lines come from different laboratories, so protocols vary.

smiles	organism	strain	cell line	read-out	dose	result
O=C1Nc2ccc([N+](=O)[O-])cc2/C1=N/N=C1/SCC(=O)N1c1ccccc1	Yellow fever virus	-	VERO	EC50	-	>20 µg/mL
Clc1ccc(C2CCc3ccccc3O2)c(Cl)c1	Poliovirus	SABIN (TYPE 2)	HEP-2	inhibition	10 µM	5%
Nc1ccn(C[C@@H](CO)OCP(=O)(O)O)c(=O)n1	Variola virus	Isolate ETH17	VERO	EC50	-	11 µg/mL
Clc1ccc2c(c1)C=C(c1ccccc1)CO2	Poliovirus	II (TYPE 2)	HEP-2	EC50	-	<10 µM
Cn1cc(NC(=O)c2cc(NC(=O)c3cc([N+](=O)[O-])cn3C)cn2C)cc1C(=O)NCCC(=N)N	Vaccinia virus	Noguchi	BSC-1	inhibition	200 µg/mL	0%
Nc1ccn(C[C@H]2COP(=O)(O)CO2)c(=O)n1	Variola virus	Isolate Horn	VERO	EC50	-	12 µg/mL
O=c1[nH]cnc2c1ncn2[C@@H]1C=C(CO)[C@@H](O)[C@H]1O	Variola virus	BSH	VERO	EC50	-	>100 µg/mL
O=[N+]([O-])c1ccc2c(c1)c(N=NC(=S)Nc1ccc(Cl)cc1)c(O)n2CN1CCOCC1	Yellow fever virus	-	VERO	EC50	-	>20 µg/mL
Cn1cc(NC(=O)c2cc(NC(=O)c3cc(NC(=O)c4cc(NC(=O)c5cc(NC=O)cn5C)cn4C)cn3C)cn2C)cc1C(=O)NCCC(=N)N	Vaccinia virus	Noguchi	BSC-1	inhibition	200 µg/mL	50%
Cc1ccc(NC(=S)N=Nc2c(O)n(CN3CCCCC3)c3ccc([N+](=O)[O-])cc23)cc1	Yellow fever virus	-	VERO	EC50	-	1.59 µg/mL
Clc1ccc2c(c1)CC(c1ccccc1)CO2	Poliovirus	IA (TYPE 2)	HEP-2	inhibition	10 µM	63%
O=[N+]([O-])c1ccc2c(c1)c(N=NC(=S)NC1CCCCC1)c(O)n2CN1CCCCC1	Yellow fever virus	-	VERO	EC50	-	<0.8 µg/mL
Nc1ncnc2c1ncn2[C@@H]1C=C(CO)[C@@H](O)[C@H]1O	Variola virus	BSH	VERO	EC50	-	0.14 µg/mL
NC(=O)c1csc([C@@H]2O[C@H](CO)[C@@H](O)[C@H]2O)n1	Variola virus	Isolate Brazil Garcia	VERO	EC50	-	19.8 µg/mL
Clc1ccc(C2COc3ccc(Cl)cc3C2)cc1	Poliovirus	II (TYPE 2)	HEP-2	inhibition	10 µM	8%
O=[N+]([O-])c1ccc2[nH]c(O)c(N=NC(=S)NC3CCCCC3)c2c1	Yellow fever virus	-	VERO	EC50	-	<0.8 µg/mL

An empty or dashed field is not shown. Inhibition is in % at the dose shown (toxicity tests: loss of growth or viability). ECn is the concentration giving n% inhibition of infection, replication or growth.